The numbers were not newly measured in US7595003B2, “On-board water treatment and management process and apparatus” (priority 2004, dated 2009), which cites them from elsewhere.

The data set deals with Cryptosporidium oocysts. The conditions noted are these: cited from earlier work.

As to chlorine, where the note is “80 μg/L chlorine dosage, oocysts not shaken with sand”, the “contact time required to achieve the same level of disinfection” value was “over 90 minutes”. Further, the vitality of oocysts result (oocysts shaken with sand, then exposed to chlorine for 5 minutes) is given as “significant decrease of vitality”.
